The entries are a selection whose mix differs from that of the whole data set. Activity calls are given as the source filed them.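 The calls were made as follows: active = inhibition of at least 50% in every replicate; inconclusive = best replicate reaches 50% inhibition but some replicates fall short; inactive = the rest.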

Protein sequences, listed by entry. Tags and fused reporters are not part of them.
UniProt Q5AAJ8, whole entry, looked up: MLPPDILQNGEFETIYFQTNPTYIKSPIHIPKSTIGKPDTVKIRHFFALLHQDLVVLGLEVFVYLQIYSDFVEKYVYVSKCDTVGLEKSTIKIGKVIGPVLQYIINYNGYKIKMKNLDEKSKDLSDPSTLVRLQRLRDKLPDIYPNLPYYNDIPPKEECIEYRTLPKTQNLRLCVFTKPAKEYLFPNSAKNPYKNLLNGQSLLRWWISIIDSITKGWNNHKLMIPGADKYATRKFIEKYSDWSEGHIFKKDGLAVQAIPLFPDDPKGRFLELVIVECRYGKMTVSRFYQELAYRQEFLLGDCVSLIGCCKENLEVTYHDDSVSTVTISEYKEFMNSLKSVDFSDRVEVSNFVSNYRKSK

The assay has as its target Histone acetyltransferase RTT109 (Candida albicans (strain SC5314 / ATCC MYA-2876)) (UniProt Q5AAJ8). Put plainly: Rtt109-Vps75 histone acetyltransferase blockade – biochemical, ThioGlo CoA-SH fluorescence, plate reader, primary screen (AID 540336). To be noted: purified Rtt109/Vps75, ThioGlo CoA-SH fluorescence, 4 h; at 34.9 µM; hits give high values.
Regarding `C(Cc1nn[nH]n1)Cc1nn[nH]n1`, the inhibition is inactive: -4.94%. For the compound `O=C(OC1CN2CCC1CC2)c1cccc(Cl)c1` (centres undefined), the inhibition is inactive: -19.6%.

Take `O=[N+]([O-])c1ncn(CCn2cnc([N+](=O)[O-])n2)n1`: the inhibition was inactive: 18.1%. `CC(=O)NC(SC(=S)N(C)C)C(Cl)(Cl)Cl` (centres undefined): the inhibition was inactive: 0.139%. Then `O=[N+]([O-])c1ccc(O)c(/C=N/Nc2ccc([N+](=O)[O-])cc2[N+](=O)[O-])c1`, with inactive: -0.542%; and `O=[As](O)(c1ccccc1)c1ccc(O)cc1`, with inactive: 1.09%. In the case of `C[C@H]1OP(=O)(Oc2ccccc2)[C@H](O)[C@H](O)[C@H]1N=[N+]=[N-]` (some centres undefined), the inhibition is inactive: -7.53%. Turning to `O=P(Nc1nc2ccccc2s1)(c1ccccc1)c1ccccc1`, the inhibition was inactive: -2.67%.

`COc1ccc(N)c([N+](=O)[O-])c1[N+](=O)[O-]`: the inhibition was inactive: 2.49%. With `CN(C)C1(CNC(=O)c2ccc(Cl)c(S(N)(=O)=O)c2)CCCCC1`, the inhibition was inactive: 7.54%.

As for `O=P(Nc1ccccn1)(c1ccc(Br)cc1)c1ccc(Br)cc1`, the inhibition is inactive: -4.43%.

For the compound `c1nnnn1CCn1cnnn1`, the inhibition was inactive: -4.8%. With `O=P(Nc1nccs1)(c1ccccc1)c1ccccc1` the figure was inactive: 3.8%; with `CC(C)C(=O)NC(Sc1ccccc1)C(Cl)(Cl)Cl` (centres undefined), inactive: 4.23%; with `CC1(CBr)Cn2c(nc3ccccc3c2=O)S1` (centres undefined), inactive: 7.96%. With `CN(C(=O)Cc1ccc(Cl)c(Cl)c1)[C@@H]1CCCC[C@H]1N1CCCC1` the figure was inactive: -0.646%.

For `CC(C)/C=N\N=C(\N)N[N+](=O)[O-]`, the inhibition was inactive: -13.3%.

`CC(C)(C)C(=O)NC(Sc1ncccn1)C(Cl)(Cl)Cl` (centres undefined): the inhibition is inactive: -0.691%. Then `CCOP(=O)(Nc1ccc(C)cn1)OCC`, with inactive: -4.46%. Then `CCOP(=O)(NC(=NC(C)c1ccccc1)NC(C)c1ccccc1)OCC` (centres undefined), with inactive: 1.68%; and `CCC1=CC2Cc3nc4ccc(Cl)cc4c(N)c3C(C1)C2` (centres undefined), with inactive: 3.3%; and `O=P1(Nc2ccccn2)COc2ccccc2OC1`, with inactive: -1.64%. In the case of `NS(=O)(=O)c1cccc(NC(=O)COC(=O)C(O)(c2ccccc2)c2ccccc2)c1`, the inhibition is inactive: 1.8%. With `O=P1(Nc2ccc(Br)cn2)COc2ccccc2OC1` the figure was inactive: -1.41%. With `O=[As](O)(c1cccs1)c1cccs1` the figure was inactive: 0.621%; with `Cc1ccc(OCC(=O)OC2CN3CCC2CC3)cc1` (centres undefined), inactive: -0.189%. Then `Nc1cccc([As](=O)(O)c2ccccc2)c1`, with inactive: 4.56%; and `O=P1(Nc2ncccn2)COc2ccccc2OC1`, with inactive: 6.47%. `CCCC1OP(=O)(Nc2ccccc2)OCC1CC` (centres undefined): the inhibition is inactive: -2.47%. Turning to `O=C(/C=C/c1ccccc1)OC1CN2CCC1CC2` (centres undefined), the inhibition is inactive: -5.87%. Consider `CN(C)C1(CNC(=O)c2ccc(S(C)(=O)=O)cc2)CCCCC1`, for which the inhibition was inactive: -5.63%. Then `Cc1ccc(C(=O)OC2CN3CCC2CC3)cc1` (centres undefined), with inactive: 5.97%. `CC1CCC(C(C)C)C(OP(=O)(Nc2ccccn2)c2ccccc2)C1` (centres undefined): the inhibition is active: 52.6%.

With `Cc1nn(-c2ccccc2)c2c1P(=O)(N1CCOCC1)N(C)C(c1ccccc1)=N2` (centres undefined), the inhibition was inactive: 11.3%.

As to `CN(C(=O)Cc1ccc(Cl)c(Cl)c1)[C@H]1CC[C@@]2(CCCO2)C[C@@H]1N1CCCC1`, the inhibition is inactive: -9.15%. Regarding `CN(C)C(=O)c1cc([N+](=O)[O-])cc2c1-c1c(cc([N+](=O)[O-])cc1[N+](=O)[O-])C2=O`, the inhibition was inactive: -6%. Then `O=[N+]([O-])c1ccc2c(c1)nnn2O`, with inactive: 0.899%. In the case of `CN(C(=O)Cc1ccccc1)[C@@H]1CC[C@]2(CCCO2)C[C@H]1N1CCCC1`, the inhibition was inactive: -4.68%. Take `CCOP1(=S)c2c(C)nn(CCC#N)c2N=C(c2ccc(F)cc2)N1C` (centres undefined): the inhibition was inactive: 8.93%. Then `N#CCCN(C(=O)COC(=O)C(O)(c1ccccc1)c1ccccc1)c1ccc(F)cc1`, with inactive: -4.98%. With `NC(=O)Nc1ccc([As](=O)(O)O)cc1` the figure was inactive: -4.79%. With `O=C(O)COc1ccc([As](=O)(O)O)cc1[N+](=O)[O-]`, the inhibition is inactive: 7.74%. Then `Nc1ccccc1[As](=O)(O)c1ccccc1`, with inactive: -1.77%; and `CS(=O)(=O)c1cc([N+](=O)[O-])c2no[n+]([O-])c2c1`, with inactive: 42.3%. Take `O=P(Nc1nccs1)(c1ccccc1)c1nc2ccccc2s1` (centres undefined): the inhibition is inactive: -0.818%. Consider `O=P(Nc1nccs1)(Oc1ccccc1)Oc1ccccc1`, for which the inhibition is inactive: 23.8%.

Consider `CCOP1(=S)c2c(C)nn(CCC#N)c2N=C(c2ccccc2F)N1C` (centres undefined), for which the inhibition was inactive: -0.44%. In the case of `COc1cc(C2NCCC3(OCCO3)C2(C)C)cc(OC)c1OC` (centres undefined), the inhibition is inactive: 0.423%.

Regarding `CCCOP(=S)(Nc1nc(N)cc(=O)[nH]1)OCCC`, the inhibition is inactive: 2.43%. Then `Nc1cccc2c([As](=O)(O)O)cccc12`, with inactive: -1.03%; and `Cc1ccc(NCCc2c([N+](=O)[O-])cc([N+](=O)[O-])cc2[N+](=O)[O-])cc1`, with inactive: 1.19%. Then `O=[As](O)(c1cccc(O)c1)c1cccc(O)c1`, with inactive: -0.45%.

Consider `Cc1cccc(OCC(=O)OC2CN3CCC2CC3)c1` (centres undefined), for which the inhibition is inactive: 19.1%. Then `CS(=O)(=O)c1ccc(Cl)c(NC(=O)COC(=O)C(O)(c2ccccc2)c2ccccc2)c1`, with inactive: 9.12%. Then `COc1cc(C(=O)NCC2(N3CCOCC3)CCCCC2)cc(Cl)c1OC(C)C`, with inactive: 1.06%; and `O=[As](O)(O)c1cccnc1`, with inactive: -6.15%; and `O=C(OC1CN2CCC1CC2)c1ccc(Cl)cc1` (centres undefined), with inactive: -3.07%. With `COc1ccc(N/C(=N/P(=O)(N2CCOCC2)N2CCOCC2)N2CCOCC2)cc1` the figure was inactive: -6.07%. As to `O=[N+]([O-])c1cc(Oc2ccc([N+](=O)[O-])cc2C(F)(F)F)cc([N+](=O)[O-])c1`, the inhibition is inactive: 6.1%. With `COc1cc(I)ccc1[As](=O)(O)O`, the inhibition is inactive: -16.6%. Then `COc1ccc2nc(NP(=O)(c3ccccc3)c3ccccc3)sc2c1`, with inactive: -0.214%; and `O=P1(N(CCCl)CCCl)Nc2ccccc2N1`, with inactive: -6.14%. With `O=P1(N(CCCl)CCCl)OCCCN1CCCl` (centres undefined) the figure was inactive: 12.6%; with `O=C(OC1CN2CCC1CC2)C12CC3CC(CC(C3)C1)C2` (centres undefined), inactive: -8.11%.

Values taken from PubChem BioAssay AID540336 (Broad Institute, 2011).
